Measured values from several laboratories, pooled; numbers as filed in NIAID ChemDB.

Shared fields: tests in culture; agent: Rhinovirus; endpoint: inhibition

Blank or dashed fields: not listed here.

| SMILES | strain or isolate | cells | method | tested at | value |
|---|---|---|---|---|---|
| CN(C)c1nc(C(F)(F)F)nc2c1ncn2Cc1ccc(Cl)c(NC=O)c1 | Serotype 19 | M-HELA | plaque count | 8 µM | 18% |
| Cc1cccc(C2=CCN(c3ccc(Cl)nn3)CC2)c1 | 17 serotypes | - | - | 0.375 µg/mL | 53% |
| CN(C)c1nc(C(F)(F)F)nc2c1ncn2Cc1cccc(F)c1 | Serotype 3 | M-HELA | plaque count | 8 µM | 35% |
| CN(c1cccc(F)c1)c1nc(C(F)(F)F)nc2c1ncn2Cc1cccc(F)c1 | Serotype 4 | M-HELA | plaque count | 10 µM | 38% |
| O=S(=O)([O-])c1cc(S(=O)(=O)[O-])c2cc(NS(=O)(=O)c3ccccc3)ccc2c1 | - | Human embryonic lung cells | cytopathic effect | 5 µg/mL | 0% |
| COc1cc(C(=O)Oc2c(-c3ccc(Cl)c(Cl)c3)oc3ccccc3c2=O)cc(OC)c1O | Serotype 1B | HeLa | plaque count | 1.56 µM | 23% |
| Nc1ccccc1S(=O)(=O)O | - | Human embryonic lung cells | cytopathic effect | 10 µg/mL | 10% |
| CN(C)c1nc(C(F)(F)F)nc2c1ncn2Cc1ccc(Cl)c(Cl)c1 | Serotype 21 | M-HELA | plaque count | 8 µM | 29% |
| CC(=O)Oc1ccc(/C=C/C(=O)Oc2c(-c3ccc(Cl)cc3)oc3ccccc3c2=O)cc1OC(C)=O | Serotype 14 | HeLa | plaque count | 1.91 µM | inactive |
| O=C(Nc1cc(S(=O)(=O)[O-])cc2cc(S(=O)(=O)[O-])ccc12)c1ccccc1 | - | Human amnion AV3 cells | cytopathic effect | 50 µg/mL | 0% |
| COc1cc(C(=O)Oc2c(-c3ccc(Cl)cc3)oc3ccccc3c2=O)ccc1OC(C)=O | Serotype 14 | HeLa | plaque count | 6.25 µM | 10% |
| CN(C)c1nc(C(F)(F)F)nc2c1ncn2Cc1ccc([N+](=O)[O-])cc1 | Serotype 3 | M-HELA | plaque count | 8 µM | 43% |
| N#Cc1cc([N+](=O)[O-])ccc1Oc1ccc(Cl)c(Cl)c1 | TYPE 1A | VERO | - | 25 µg/mL | 87% |
| COc1cc(C(=O)Oc2c(-c3ccc(Cl)cc3)oc3ccccc3c2=O)ccc1O | Serotype 1B | HeLa | plaque count | 0.49 µM | inactive |
| Fc1cccc(Cn2cnc3c(Nc4cccc(F)c4)nc(C(F)(F)F)nc32)c1 | Serotype 30 | M-HELA | plaque count | 5 µM | 17% |
| CCCCCCCCCCCCCCOc1ccc(C(C)=O)o1 | 17 serotypes | - | - | 1.75 µg/mL | 71% |
| O=C(O)Cc1csc(/N=C2\SC[C@@H]3Cc4ccccc4CN23)n1 | Serotype 14 | MRC-5 | cytopathic effect | 10 µg/mL | 80–100% |
| CN(C)c1nc(C(F)(F)F)nc2c1ncn2Cc1ccc(C(F)(F)F)cc1 | Serotype 2 | M-HELA | plaque count | 4 µM | 23% |
| COc1cc(C(=O)Oc2c(-c3ccc(Cl)c(Cl)c3)oc3ccccc3c2=O)ccc1O | Serotype 14 | HeLa | plaque count | 6.25 µM | 36% |
| CN(C)c1ccc(Cn2cnc3c(N(C)C)nc(C(F)(F)F)nc32)cc1 | Serotype 15 | M-HELA | plaque count | 8 µM | 30% |
| O=S(=O)([O-])c1ccc2c(O)cc(S(=O)(=O)[O-])cc2c1 | - | Human embryonic lung cells | cytopathic effect | 10 µg/mL | 30% |
| Cc1cccc(C2=CCN(c3ccc(Br)nn3)CC2)c1 | 17 serotypes | - | - | 1.126 µg/mL | 71% |
| CSc1ccc(Cn2cnc3c(N(C)C)nc(C(F)(F)F)nc32)cc1 | Serotype 13 | M-HELA | plaque count | 8 µM | 35% |
| Cc1ccc(Cn2cnc3c(N(C)C)nc(C(F)(F)F)nc32)cc1 | TYPE 16 | M-HELA | plaque count | 5 µM | 12% |
| Cc1cc(Cl)ccc1Cn1cnc2c(N(C)C)nc(C(F)(F)F)nc21 | Serotype 21 | M-HELA | plaque count | 8 µM | 22% |
| Cc1cc(CCCCCCCOc2ccc(C3=NCCO3)cc2)on1 | 17 serotypes | - | - | 2.475 µg/mL | 71% |

Percent inhibition refers to the dose given; in toxicity tests it is the harm to the cells. For "inactive" no cut-off is given. a–b is a range or a potency band. Neighbouring rows are from separate reports.